Assay results published in ChEMBL document CHEMBL3045459 (Med Chem Res, 2013).

These compounds were tested against T1, cAMP-specific 3',5'-cyclic phosphodiesterase 4B (Crotalus adamanteus) (UniProt J3SE37) (assay: Inhibition of snake venom phosphodiesterase using bis-(para-nitrophenyl)phosphate as substrate at 0.1 mM after 30 min by spectrophotometric analysis). Conditions: Serpentes.
T1 sequence (whole entry): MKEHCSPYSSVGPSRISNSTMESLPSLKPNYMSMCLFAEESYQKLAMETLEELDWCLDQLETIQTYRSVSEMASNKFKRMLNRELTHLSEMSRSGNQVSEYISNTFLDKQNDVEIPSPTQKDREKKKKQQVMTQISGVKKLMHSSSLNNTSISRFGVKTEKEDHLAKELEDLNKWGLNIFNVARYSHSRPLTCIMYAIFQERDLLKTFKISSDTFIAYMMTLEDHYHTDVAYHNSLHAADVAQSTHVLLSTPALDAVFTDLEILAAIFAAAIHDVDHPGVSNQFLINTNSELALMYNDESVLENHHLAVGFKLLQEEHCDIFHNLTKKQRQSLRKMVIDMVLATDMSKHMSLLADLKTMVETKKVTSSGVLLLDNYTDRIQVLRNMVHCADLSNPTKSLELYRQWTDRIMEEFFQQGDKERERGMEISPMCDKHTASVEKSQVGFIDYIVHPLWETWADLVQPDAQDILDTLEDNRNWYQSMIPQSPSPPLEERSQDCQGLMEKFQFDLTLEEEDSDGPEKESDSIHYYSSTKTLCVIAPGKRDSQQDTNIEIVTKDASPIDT
`Nc1nc(-c2ccc(-n3ccnc3)cc2)cc(-c2cc(Cl)ccc2Cl)n1` was tested, and the inhibition was “inactive”. In the case of `COc1cccc(-c2cc(-c3ccc(-n4ccnc4)cc3)nc(N)n2)c1`, the inhibition is reported as 22.4%. `Nc1nc(-c2ccc(I)cc2)cc(-c2ccc(-n3ccnc3)cc2)n1` showed an inhibition of 11.7%. With `COc1cc(-c2cc(-c3ccc(-n4ccnc4)cc3)nc(N)n2)ccc1OO` the inhibition was “inactive”. In the case of `Nc1nc(-c2ccc(F)cc2)cc(-c2ccc(-n3ccnc3)cc2)n1`, the inhibition is reported as “inactive”. `Nc1nc(-c2ccc(Br)cc2)cc(-c2ccc(-n3ccnc3)cc2)n1` showed an inhibition of 9.2%.

Each compound was assayed against T1, cAMP-specific 3',5'-cyclic phosphodiesterase 4B (Crotalus adamanteus) (assay: Inhibition of snake venom phosphodiesterase using bis-(para-nitrophenyl)phosphate as substrate at 0.2 mM after 30 min by spectrophotometric analysis). Conditions: Serpentes.
With `Nc1nc(-c2ccc(-n3ccnc3)cc2)cc(-c2ccc(Cl)cc2Cl)n1` the inhibition was “inactive”. `Nc1nc(-c2ccc(-n3ccnc3)cc2)cc(-c2ccc(Cl)c(Cl)c2Cl)n1` was tested, and the inhibition was 12%. In the case of `Nc1nc(-c2ccc(Cl)cc2)cc(-c2ccc(-n3ccnc3)cc2)n1`, the inhibition is reported as “inactive”. With `Nc1nc(-c2ccccc2)cc(-c2ccc(-n3ccnc3)cc2)n1` the inhibition was “inactive”. Compound `COc1ccc(-c2cc(-c3ccc(-n4ccnc4)cc3)nc(N)n2)cc1` has an inhibition of 12%.

The source made the active and inactive calls. No cut-off for these calls is given here.
